# Experimental data: publication PMC7712488 (Vaccines, 2020)
# Tested on: DQ0602
# Test: DQ0602 peptide competition binding assay (vs Bio-EBV epitope, DELFIA TRF)
# Details: Suppl Table 1, motif in Arepanrix; 25 nM DQ0602, 100 nM HLA-DM, 1 μM Bio-EBV, 40 μM competitor peptide, pH 4.6, 3 days 37 °C, duplicate; Eu TRF relative to Bio-EBV alone; <25% strong binder, 25–50% weak binder
substance,measurement,value
QGRGVFELSD[E > D]KAASPIVPS,%DQ6-EBV Binding (AREPANRIX motif),25.14%
